Compound potency records, mixed from different reports. Data source: NIAID ChemDB in PubChem.

Shared fields: whole-cell or culture tests; organism: HIV-1; method: syncytia; read-out: inhibition

Conditions beyond the fields shown may differ between rows. Inhibition is in % at the dose shown (toxicity tests: loss of growth or viability). An empty or dashed field is not shown.

SMILES,strain,cell line,dose,result
COc1ccc(OC[C@H]2CNCC[C@@H]2c2ccccc2)cc1,IIIB,MOLT-3,4 µg/mL,7%
Cc1cn([C@H]2C[C@H](N=[N+]=[N-])[C@@H](CO)O2)c(=O)[nH]c1=O,BRU,MT-4,0.067 µg/mL,100%
NC(N)=NCCC[C@H](N)C(=O)NCC(=O)N1CCC[C@H]1C(=O)NCC=O,IIIB,H9,250 µg/mL,10%
O=C(O)c1cc(O)c(O)c(O)c1,IIIB,MOLT-3,5 µg/mL,67%
COc1ccc(OC[C@@H]2CN(C)CC[C@H]2c2ccccc2)cc1,IIIB,MOLT-3,20 µg/mL,50%
C=CC(C)(C)c1cc(/C=C/C(=O)c2ccc(O)cc2)c(OC)cc1O,-,MOLT-4/OKM-1(HIV-1) + MOLT-4,20 µg/mL,100%
NCC(=O)NCC(=O)NCC=O,IIIB,H9,25 µg/mL,10%
[B-]P(=O)([O-])CC[C@@H]1C=C[C@H](n2cc(C)c(=O)[nH]c2=O)O1,IIIB,CEM,400 µM,0%
Fc1ccc([C@@H]2CCNC[C@H]2COc2ccc3c(c2)OCCO3)cc1,IIIB,MOLT-3,4 µg/mL,29%
Nc1c(S(=O)(=O)O)cc2c3c(cc(S(=O)(=O)O)cc13)C(=O)N(NC(=O)N/N=C/c1cccc(C=O)c1)C2=O,-,MT-2,200 µM,5%
Nc1nc2c(ncn2[C@H]2CC[C@@H](CO)O2)c(=O)[nH]1,IIIB,MT-2,1 µM,58%
CN(C)CCC=C1c2ccccc2CCc2ccccc21,IIIB,MOLT-3,10 µg/mL,19%
CCCCC[C@H](O)/C=C/[C@H]1C=CC(=O)[C@@H]1CCCCCCC(=O)O,IIIB,C8166,20 µM,98%
CC(C)=CCc1cc(-c2oc3cc(O)cc(O)c3c(=O)c2O)ccc1O,-,MOLT-4/OKM-1(HIV-1) + MOLT-4,20 µg/mL,100%
CC(=O)O[C@H]1C[C@@]2(C)[C@@H](C[C@@H](O)[C@H]3[C@@]4(C)CC[C@@H](O)[C@@H](C)[C@@H]4CC[C@@]32C)/C1=C(\CCC=C(C)C)C(=O)O,H9RF,C8166,100 µg/mL,100%
S=C1CN(c2ccccc2)Cc2nc(Cl)ccc2N1,BRU,MT-4,5 µg/mL,100%
CN1CC[C@H](c2ccccc2)[C@@H](COc2ccc3c(c2)OCCO3)C1,IIIB,MOLT-3,4 µg/mL,6%
CN=C1CN=C(c2ccc[nH]2)c2cc(Cl)ccc2N1,LAV-1,HT4 + HT4-6C,0.1 µM,26%
NCC(=O)N1CCC[C@H]1C(=O)NCC=O,IIIB,H9,25 µg/mL,80%
CN1C(=O)CN(c2ccccc2)Cc2nc(Cl)ccc21,BRU,MT-4,7.5 µg/mL,100%
O=CCNC(=O)[C@@H]1CCCN1,IIIB,H9,25 µg/mL,99%
CCCCCN1CC[C@@H](c2ccc(F)cc2)[C@H](COc2ccc3c(c2)OCCO3)C1,IIIB,MOLT-3,4 µg/mL,22%
C[C@@H](C=O)NC(=O)[C@@H]1CCCN1C(=O)CN,IIIB,H9,250 µg/mL,80%
CCCCC[C@H](O)/C=C/C1[C@H](O)CC(=O)[C@@H]1CCCCCCC(=O)O,IIIB,C8166,40 µM,0%
COc1ccc(OC[C@H]2CNCC[C@@H]2c2ccc(F)cc2)cc1,IIIB,MOLT-3,4 µg/mL,5%
O=S(=O)(O)c1cc(N=C=S)ccc1CCc1ccc(N=C=S)cc1S(=O)(=O)O,GB8,JM,50 µg/mL,100%

A second listing of 2 rows from above:

SMILES	strain	cell line	dose	result
CCCCC[C@H](O)/C=C/C1[C@H](O)CC(=O)[C@@H]1CCCCCCC(=O)O	IIIB	C8166	40 µM	0%
CN(C)CCC=C1c2ccccc2CCc2ccccc21	IIIB	MOLT-3	10 µg/mL	19%